In patent US12138308B2, “Polymer composite for helicobacter pylori recognition and composition for photodynamic therapy comprising same” (eNBiaR Inc., priority 2018, dated 2024):

Assays:
[1] = system: Helicobacter pylori (H. pylori) SS1 strain; experiment: Treatment of Helicobacter pylori SS1 infection in Balb/c mice, CFU assay of stomach; type: in vivo; conditions: balb c mice, oral
[2] = system: AGS cells (human gastric cancer cells); experiment: Cytotoxicity by concentration in AGS cells (MTT test); type: cell-based; conditions: 4 hours, at 0.5 μg/mL or less of pheophorbide a, no laser
AGS cells = experiment: Cellular phototoxicity by laser irradiation dose in AGS cells (MTT assay); conditions: 0.5 μg/mL based on pheophorbide a, 30 minutes
[3] = system: Helicobacter pylori 26695 strain; experiment: Antibacterial activity in vitro by laser dose, CFU assay, 26695 strain; type: cell-based; conditions: same laser conditions

Question: With butyl-poly(3SL-lysine)10-pheoa as the substance, how does the “Helicobacter pylori colonies, laser-irradiated group (+)” value ([1]; 40 mW laser 250 seconds, total 10 J/cm^2 into the stomach) read?
Answer: Its value is 6.7×10^4 CFU/stomach.

Question: What about the “Helicobacter pylori colonies, laser-non-irradiated group (−)” value ([1]; stomach removed two days after final administration, no laser) of the same substance?
Answer: Its value is 1.6×10^7 CFU/stomach.

Question: What about the “cytotoxicity (MTT cell viability)” value [2] of the same substance?
Answer: The value was “hardly exhibited cytotoxicity”.

Question: And the “cytotoxicity until 2.4 J/cm^2 laser irradiation” value (AGS cells)?
Answer: Its value is “little cytotoxicity”.

Question: And the “cytotoxicity at 4.0 J/cm^2” value (AGS cells; 4.0 J/cm^2 laser)?
Answer: Its value is “about 30%”.

Question: And the “laser irradiation dose from which cytotoxicity appeared” value (AGS cells; 50 mW laser)?
Answer: Its value is 3.2 J/cm^2.

Question: How did the “antibacterial activity compared to butyl-poly(3SL-lysine)10-Pheoa” value [3] turn out when butyl-poly(6SL-lysine)10-Pheoa was run?
Answer: The value was “very low antibacterial activity”.
